From paper PMC3172200 (PLoS Biology, 2011)

Target: staphylococcal enterotoxin B (SEB), Lot 1430 (Staphylococcus aureus, UniProt P01552 28-266)
Assay: SPR

Row | Binder | binding result
1 | CHVKGKHLCPC [p1TA (HVKGKHLCP; CD28 116-124), form for SPR] | binds
2 | CSPMLVAYDC [p2TA (SPMLVAYD; CD28 8-15), form for SPR] | binds
